The entries are a selection whose mix differs from that of the whole data set. Active and inactive are the calls of the source.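 How the source made its calls: active means mean replicate inhibition score of at least 50 and every replicate individually at or above 50; inconclusive means only one of the two criteria met; inactive means mean below 50 and not all replicates reaching 50.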

A short description of this assay: inhibitors of HIV-1 Env-driven cell-cell fusion, primary screen, HeLa-JRFL effector, CEM21 target cells, luciferase (AID 651610).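 Further: 0% = plate neutral controls and 100% = maraviroc near 300 nM.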 The settings on record: at 12.3 µM, stronger effect = higher value.
As for `O=[N+]([O-])c1cc(Oc2ccc([N+](=O)[O-])cc2C(F)(F)F)cc([N+](=O)[O-])c1`, the inhibition (as a rule, the change of the read-out against control, counted positive when it falls) is inactive: 0.982%.

Consider `COc1ccccc1-c1ccccn1.O=[N+]([O-])c1cc([N+](=O)[O-])c(O)c([N+](=O)[O-])c1`, for which the inhibition is inactive: 9.96%.

For `COc1ccc(N/C(=N/P(=O)(N2CCOCC2)N2CCOCC2)N2CCOCC2)cc1`, the inhibition was inactive: 11%.

For the compound `Cc1cccc(C)c1OP(C)(N)=O` (stereo not given), the inhibition was inactive: -9.93%.

Take `Cc1ccc(OP(=O)(Nc2ccc([N+](=O)[O-])cn2)Oc2ccc(C)cc2)cc1`: the inhibition is inactive: -1.32%.

Turning to `[N-]=[N+]=NC1CCCCC1NC(=O)c1cc([N+](=O)[O-])cc([N+](=O)[O-])c1` (stereo not given), the inhibition is inactive: -0.433%.

In the case of `O=[N+]([O-])c1ccc2c(c1)C=Nc1ccccc1O2`, the inhibition is inactive: -13%.

Take `Cc1ccc2nc3c(c(C)c2c1)CC(C(Cl)Cl)S3` (stereo not given): the inhibition was inactive: -9.17%.

As for `O=[N+]([O-])c1cc([N+](=O)[O-])c(Nc2cccnc2)c([N+](=O)[O-])c1`, the inhibition is inactive: 23.4%.

With `O=[N+]([O-])c1ccc(-c2cc([N+](=O)[O-])c(O)c([N+](=O)[O-])c2)cc1`, the inhibition was inactive: -20.2%.

Regarding `COc1cc(C(=O)NCC2(N3CCOCC3)CCCCC2)ccc1OCC(C)C`, the inhibition is inactive: 8.62%.

For `O=[As](O)(c1ccc(O)cc1)c1ccccc1O`, the inhibition was inactive: -9.13%.

`C[As](=O)(O)c1cccc(C(=O)O)c1`: the inhibition was inactive: -10.8%.

Take `COc1ccc(OP(C)(=O)Nc2cccc(F)c2)cc1` (stereo not given): the inhibition is inactive: -17.9%.

In the case of `CC(C)NC(=O)NP(=O)(Oc1ccccc1)Oc1ccccc1`, the inhibition was inactive: -52.1%.

With `COc1ccccc1OP(C)(=O)Nc1cc(Cl)ccc1C` (stereo not given), the inhibition is inactive: 28.1%.

`O=C(OC1CN2CCC1CC2)c1cccc2[nH]cnc12` (stereo not given): the inhibition is inactive: -6.73%.

`Cc1cc(C)cc(OP(C)(N)=O)c1` (stereo not given): the inhibition was inactive: 2.54%.

On to `ClCCSc1nnc(-c2cccnc2)o1`, for which the inhibition is inactive: -148%.

`CCOC(=O)c1ccc(NP(C)(=O)Oc2ccccc2)cc1` (stereo not given): the inhibition was inactive: 11.7%.

Turning to `COC(=O)C1(C)COP(=O)(N2CCCCCC2)OC1` (stereo not given), the inhibition is inactive: -13.1%.

For the compound `Cc1ccc(NP(C)(=O)Oc2ccccc2)c(C)c1` (stereo not given), the inhibition is inactive: -14.2%.

For the compound `CC(C)c1ccc(OP(=O)(Nc2ccccn2)Oc2ccccc2F)cc1` (stereo not given), the inhibition is inactive: -11.2%.

As to `Cc1cc(SC(NC(=O)c2ccccc2)C(Cl)(Cl)Cl)nc(C(C)C)n1` (stereo not given), the inhibition is inactive: -1.82%.

In the case of `CCCCOc1ccc(C(=O)NCC2(N3CCCCC3)CCCCC2)cc1OC`, the inhibition was inactive: 17.5%.

On to `O=C(O)C(=O)c1ccc(N(CCCl)CCCl)cc1.c1ccc(Nc2ccccc2)cc1`, for which the inhibition was inactive: 36.1%.

Take `CCOC(=O)Nc1ccc([As](=O)(O)O)c(O)c1`: the inhibition was inactive: -12.7%.

As to `CC1CCNP(=O)(N(CCCl)CCCl)O1` (stereo not given), the inhibition was inactive: -2.49%.

For the compound `COc1ccccc1OP(C)(=O)Nc1ccccc1` (stereo not given), the inhibition was inactive: -3.04%.

As to `Cc1cc(SC(NC=O)C(Cl)(Cl)Cl)ncn1` (stereo not given), the inhibition was inactive: 4.84%.

In the case of `O=P(Nc1ccccn1)(c1cccc2ccccc12)c1cccc2ccccc12`, the inhibition is inactive: 5.61%.

On to `O=[N+]([O-])c1ccc(Nc2ccc(Oc3ccc([N+](=O)[O-])cc3[N+](=O)[O-])cc2)c([N+](=O)[O-])c1`, for which the inhibition was inactive: -27.9%.

On to `CCOC(=O)Nc1cccc([As](=O)(O)O)c1`, for which the inhibition was inactive: -15.3%.

As to `Cc1cc(C)cc(OP(C)(=O)Nc2ccc(SC(F)(F)F)cc2)c1` (stereo not given), the inhibition is inactive: 27.2%.

For `O=C(Nc1ccncc1[N+](=O)[O-])c1ccc([N+](=O)[O-])cc1[N+](=O)[O-]`, the inhibition is inactive: -22.4%.

With `O=C(COc1ccccc1)OC1CN2CCC1CC2` (stereo not given), the inhibition is inactive: -32.5%.

In the case of `CCc1ccc(OP(C)(=O)N2CCN(c3ccc([N+](=O)[O-])cc3)CC2)cc1` (stereo not given), the inhibition was inactive: 8.17%.

Turning to `COC(=O)C1(C)COP(=O)(N2CCCC2)OC1` (stereo not given), the inhibition is inactive: -2.89%.

Take `CP(=O)(Oc1ccccc1)OC(c1ccccc1)C(F)(F)F` (stereo not given): the inhibition is inactive: 13.9%.

In the case of `CP(=O)(Nc1ccc(SC(F)(F)F)cc1)Oc1ccc(Cl)cc1` (stereo not given), the inhibition was inactive: 13.3%.

Consider `Cc1cccc(C)c1OP(C)(=O)Nc1ccc(SC(F)(F)F)cc1` (stereo not given), for which the inhibition is inactive: 16.3%.

As to `CCC(C)N(CC(C)C)C(=S)SC(NC(C)=O)C(Cl)(Cl)Cl` (stereo not given), the inhibition is inactive: 4.12%.

On to `O=C(OC1CN2CCC1CC2)c1cccc([N+](=O)[O-])c1` (stereo not given), for which the inhibition was inactive: 1.45%.

Regarding `O=[N+]([O-])c1cc([N+](=O)[O-])c(O)c([N+](=O)[O-])c1.c1ccc(Oc2ccncc2)cc1`, the inhibition was inactive: -0.392%.

In the case of `CCOC(=O)c1ccc(NC(=O)C(C)(CCl)SC)cc1` (stereo not given), the inhibition is inactive: -4.24%.
